Experiment [1] has as its target T1, His-tagged BG505 SOSIP.664 trimer produced in 293S cells (HIV-1 isolate BG505 (subtype A), stabilised).
T1 construct: gp120 of HIV-1 BG505 Env as in the SOSIP.664 gp140 design; copies: 3 + 3
Nature of the experiment: SPR; Biacore 3000, 25 °C, HBS-EP; His-tagged trimer captured by anti-histidine antibody on CM5 to 500 RU; 3BC315 IgG or Fab titrated down in twofold steps from 1 μM; IgG fitted with a bivalent, Fab with a Langmuir model. The note with it: both partners purified.

Experiment [2] deals with T2, His-tagged BG505 SOSIP.664 trimer produced in 293T cells (HIV-1 isolate BG505 (subtype A), stabilised).
T2 construct: source: HEK293T; not shown: His8, C-terminal, kept; copies: 3 + 3
The experiment is described as above. The settings on record: both partners purified.

Experiment [3] concerns the target T3, His-tagged BG505 SOSIP.664 trimer produced in 293F cells (HIV-1 isolate BG505 (subtype A), stabilised).
T3 construct: gp120 of HIV-1 BG505 Env as in the SOSIP.664 gp140 design; copies: 3 + 3
The experiment is described as above. The note with it: both partners purified.

The next experiment addresses T4, BG505 WT.SEKS (HIV-1 isolate BG505 (clade A), UniProt Q2N0S6, stabilised).
T4 construct: uncleaved gp140 of HIV-1 BG505 Env with the SEKS cleavage-site change, without SOS and IP; source: HEK293T
The experiment is described as follows: SPR; D7324-tagged BG505 Env forms captured by D7324 antibody on CM5 (500 RU; gp120 425 RU); 3BC315 injected at 500 nM; 25 °C, HBS-EP.

The target of the next experiment is T5, BG505 IP.SEKS (HIV-1 isolate BG505 (clade A), UniProt Q2N0S6, stabilised).
T5 construct: uncleaved gp140 of HIV-1 BG505 Env with IP and the SEKS cleavage-site change, without SOS; source: HEK293T
The experiment is described as above.

In another experiment the target is T6, BG505 SOSIP.SEKS (HIV-1 isolate BG505 (subtype A), UniProt Q2N0S6, stabilised).
T6 construct: uncleaved gp140 of HIV-1 BG505 Env with SOS, IP and the SEKS cleavage-site change; source: HEK293T
The experiment is described as above.

The next experiment addresses T7, BG505 SOS.SEKS (HIV-1 isolate BG505 (clade A), UniProt Q2N0S6, stabilised).
T7 construct: uncleaved gp140 of HIV-1 BG505 Env with SOS and the SEKS cleavage-site change, without IP; source: HEK293T
The experiment is described as above.

Results on two molecules are retold here after article PMC4586043, “Antibodies to a conformational epitope on gp41 neutralize HIV-1 by destabilizing the Env spike” (Nature Communications, 2015).

What is called stoichiometry N is the number of molecules, sites or subunits per partner or assembly.

B1: 3BC315 Fab (Fab, V domains shown)
VH: QVQLVQSGAEMKDPGASVKVSCRASGYKFTDYYMHWVRQAPGQGLEWVGWVNTNGGFTKYGAKFQGRVTVTRDTSTNTVFLELSRLTFGDTAMYFCARPMRPVSHGIDYSGLFVFQFWGRGTMVTVSS
VL: QSALTQPASVSASPGQSITISCSGTRSDVGGYDFVSWYQQHPGKVPKLIIYEVTKRPSGIPQRFSGSKSGNTASLTISGLQADDEADYYCCSYANYDKLILGGGTKLTVL
In the case of B1, the Kd in experiment [1] was 4.7 nM; in experiment [2], less than 10 nM; in experiment [3], less than 10 nM. Further, the “stoichiometry N” value amounted to 1.5 in experiment [1], 1.1 in experiment [2] and 1.3 in experiment [3].

B2: 3BC315 IgG (antibody, V domains shown)
VH: QVQLVQSGAEMKDPGASVKVSCRASGYKFTDYYMHWVRQAPGQGLEWVGWVNTNGGFTKYGAKFQGRVTVTRDTSTNTVFLELSRLTFGDTAMYFCARPMRPVSHGIDYSGLFVFQFWGRGTMVTVSS
VL: QSALTQPASVSASPGQSITISCSGTRSDVGGYDFVSWYQQHPGKVPKLIIYEVTKRPSGIPQRFSGSKSGNTASLTISGLQADDEADYYCCSYANYDKLILGGGTKLTVL
In the case of B2, the binding result in the experiment with BG505 WT.SEKS, with BG505 IP.SEKS, with BG505 SOSIP.SEKS and with BG505 SOS.SEKS was “binds” each time.
